A mixed list of measured activities; the numbers were collected in NIAID ChemDB.

All rows: growth or infection tests; agent: HIV-1; cell line: MT-4; measure: EC50

Neighbouring rows are from separate reports. Blank or dashed fields: not listed here. ECn is the concentration giving n% inhibition of infection, replication or growth. Two numbers with a dash give a range or band.

| compound | strain or isolate | changes | read by | result |
|---|---|---|---|---|
| COc1cccc(-c2cc(C(C)=O)c(C)n2-c2cccc(N=[N+]=[N-])c2)c1 | - | - | cytopathic effect / MTT | >8.7 µM |
| O=C1Nc2ccccc2/C1=N/n1c(-c2ccncc2)n[nH]c1=S | IIIB | - | cytopathic effect / MTT | >11 µM |
| Cc1cn([C@H]2C=C[C@@H](COC(=O)CCCCCCCCCCCBr)O2)c(=O)[nH]c1=O | - | - | p24 | 0.7 µM |
| CCOC(=O)c1cc(-c2ccccc2)n(-c2cccc(N)c2)c1C | - | - | cytopathic effect / MTT | >300 µM |
| Cc1cc(C)cc(C(=O)c2cc(Cl)ccc2OCC(=O)Nc2ccc(S(N)(=O)=O)cc2C)c1 | IIIB | - | cytopathic effect / propidium iodide | <0.01 µM |
| O=C1Nc2ccc(Cl)cc2/C1=N/n1c(-c2ccncc2)n[nH]c1=S | IIIB | - | cytopathic effect / MTT | >11 µM |
| Cc1cc(C#N)cc(C)c1Oc1nc(Nc2ccc(NS(=O)(=O)c3ccc4oc(=O)ccc4c3)cc2)nc2ccsc12 | IIIB | - | MTT | 12.55 µM |
| O=S(=O)(O)c1cc(Cl)cc(Cc2cc(Cl)cc(S(=O)(=O)O)c2O)c1O | IIIB | - | cytopathic effect / MTT | >100 µg/mL |
| Cc1ccc(NC(=S)NNC(=O)CNC(=O)COc2ccc3ccccc3c2)cc1 | IIIB | - | MTT | >91.4 µg/mL |
| Cc1cc(C#N)cc(C)c1Oc1nc(NC2CCC(NCc3ccc([N+](=O)[O-])cc3)CC2)nc2ccsc12 | IIIB | NNRTI-resistant (RT K103N) | MTT | 0.69 µM |
| CS(=O)(=O)Nc1ccc(NC(=O)COc2ccc(Cl)cc2C(=O)c2ccccc2)cc1 | Nevirapine-resistant (RT Y181C) | RT-Y181C | cytopathic effect / propidium iodide | 0.011–0.1 µM |
| Cc1ccc(CN2CCC(Nc3nc(Oc4c(C)cc(/C=C/C#N)cc4C)c4sccc4n3)CC2)cc1 | IIIB | NNRTI-resistant (RT L100I) | MTT | 0.0319 µM |
| O=C1Nc2ccc(Br)cc2/C1=N/n1c(-c2ccncc2)n[nH]c1=S | IIIB | - | cytopathic effect / MTT | >11 µM |
| NC(N)=NCCCNC(=O)c1cc2c(cn1)[nH]c1ccccc12 | IIIB | - | cytopathic effect | ≥50 µM |
| Cc1cc(C)c(Nc2nc(NC3CCN(Cc4ccc([N+](=O)[O-])cc4)CC3)nc3nc[nH]c23)c(C)c1 | IIIB | - | MTT | >21.8 µM |
| COc1ccc(NC(=S)NNC(=O)CNC(=O)COc2ccc3ccccc3c2)cc1 | IIIB | - | MTT | >13.2 µg/mL |
| Cc1cc(OCCCS(N)(=O)=O)ccc1NC(=O)COc1ccc(Cl)cc1C(=O)c1cc(F)cc(C(F)(F)F)c1 | Nevirapine-resistant (RT Y181C) | RT-Y181C | cytopathic effect / propidium iodide | <0.01 µM |
| COc1ccc(-n2c(CNC(=O)COc3ccc4ccccc4c3)n[nH]c2=S)cc1 | IIIB | - | MTT | >46.2 µg/mL |
| Cc1cc(/C=C/C#N)cc(C)c1Oc1nc(NC2CCN(Cc3ccccc3Br)CC2)nc2ccsc12 | IIIB | NNRTI-resistant (RT Y188L) | MTT | 0.15 µM |
| NC(=NC1CCCCC1)c1ccc2nc(Cc3nc4ccc(C(N)=NC5CCCCC5)cc4[nH]3)[nH]c2c1 | IIIB | - | cytopathic effect / propidium iodide | 2.6 µM |
| COc1ccc2c3ccc(N)cc3n3c(C)c(C(C)=O)cc3c2c1 | - | - | cytopathic effect / MTT | >43 µM |
| Cc1cc(C#N)cc(C)c1Oc1nc(Nc2ccc(NS(=O)(=O)c3ccc4ccccc4c3)cc2)nc2ccsc12 | IIIB | - | MTT | 1.17 µM |
| Cc1cc(OCCCN2CCOCC2)ccc1NC(=O)COc1ccc(Cl)cc1C(=O)c1cccs1 | Nevirapine-resistant (RT Y181C) | RT-Y181C | cytopathic effect / propidium iodide | 0.011–0.1 µM |
| CCOCn1c(Cc2ccccc2)c(C(C)C)c(=O)[nH]c1=O | - | - | MTT | 0.03 µM |
| NC(=NC1CCCC1)c1ccc2nc(Cc3nc4ccc(C(N)=NC5CCCC5)cc4[nH]3)[nH]c2c1 | IIIB | - | cytopathic effect / propidium iodide | 3.2 µM |
| CCOC(=O)c1cc(-c2cccc(OC)c2)n(-c2cccc(Cl)c2)c1C | - | - | cytopathic effect / MTT | >100 µM |
| Cc1cn([C@H]2C=C[C@@H](COC(=O)CCCCCCCCCCCN=[N+]=[N-])O2)c(=O)[nH]c1=O | - | - | p24 | 0.06 µM |
| Cc1ccc(-c2c(C)c3c(c(C)c2[C@H](OC(C)(C)C)C(=O)O)N(S(C)(=O)=O)Cc2cccc(F)c2-3)cc1 | - | T174I | MTT | 0.29 µM |
| CCc1cc(C#N)cc(C(=O)c2cc(Cl)ccc2OCC(=O)Nc2ccc(S(N)(=O)=O)cc2C)c1 | IIIB | - | cytopathic effect / propidium iodide | <0.01 µM |
| Cc1cc(/C=C/C#N)cc(C)c1Oc1nc(NC2CCN(Cc3cccc(Br)c3)CC2)nc2ccsc12 | IIIB | NNRTI-resistant (RT L100I) | MTT | 0.0285 µM |
| NCCCNC(=O)c1cc2c(cn1)[nH]c1ccccc12 | IIIB | - | cytopathic effect | >1000 µM |
| Cc1cc(C#N)cc(C)c1Oc1nc(NC2CCN(S(=O)(=O)c3ccc([N+](=O)[O-])cc3)CC2)nc2ccsc12 | IIIB | - | MTT | 0.85 µM |
| O=C(COc1ccc(Cl)cc1C(=O)c1ccccc1)Nc1ccc2cn[nH]c2c1 | IIIB | - | cytopathic effect / propidium iodide | <0.01 µM |
| Cc1cc(C)c(Nc2nc(NC3CCN(Cc4ccccc4C#N)CC3)nc3nc[nH]c23)c(C)c1 | RES056 | - | MTT | >125 µM |
| CC(=O)N1Cc2ccccc2-c2c(C)c(-c3ccc(C)cc3)c([C@H](OC(C)(C)C)C(=O)O)c(C)c21 | - | - | MTT | 0.011 µM |
| Cc1cc(S(N)(=O)=O)ccc1NC(=O)COc1ccc(Cl)cc1C(=O)c1cc(C#N)cc(C#N)c1 | IIIB | - | cytopathic effect / propidium iodide | <0.01 µM |
| O=C(COc1ccc2ccccc2c1)NCc1n[nH]c(=S)n1-c1ccc(Cl)cc1 | IIIB | - | MTT | >20.2 µg/mL |
| Cc1cc(N2CCS(=O)CC2)ccc1NC(=O)COc1ccc(Cl)cc1C(=O)c1cccs1 | Nevirapine-resistant (RT Y181C) | RT-Y181C | cytopathic effect / propidium iodide | 0.011–0.1 µM |
| Cc1ccc(S(=O)(=O)Sc2nnc(CNC(=O)COc3ccc4ccccc4c3)n2-c2ccccc2)cc1 | IIIB | - | MTT | >12.7 µg/mL |
| CN(C)CN1C(=O)/C(=N\n2c(-c3ccncc3)n[nH]c2=S)c2cc(Cl)ccc21 | IIIB | - | cytopathic effect / MTT | >12 µM |
| O=C(COc1ccc2ccccc2c1)NCC(=O)NNC(=S)Nc1ccc(Cl)cc1 | IIIB | - | MTT | >11.2 µg/mL |
| Cc1cc(C)c(Nc2nc(NC3CCN(Cc4ccc(Cl)c(Cl)c4)CC3)nc3nc[nH]c23)c(C)c1 | RES056 | - | MTT | >189 µM |
| Cc1ccc(-c2c(C)c3c(c(C)c2[C@H](OC(C)(C)C)C(=O)O)N(S(C)(=O)=O)Cc2cc(C(F)(F)F)ccc2-3)cc1 | - | T174I | MTT | 0.0073 µM |
| Cc1cc(/C=C/C#N)cc(C)c1Oc1nc(NC2CCN(Cc3ccc(F)cc3)CC2)nc2ccsc12 | IIIB | NNRTI-resistant (RT F227L V106A) | MTT | 0.103 µM |
| CC(c1nc2ccc(C3=NCCN3)cc2[nH]1)c1nc2ccc(C3=NCCN3)cc2[nH]1 | IIIB | - | cytopathic effect / propidium iodide | 37.9 µM |
| Cc1cc(/C=C/C#N)cc(C)c1Oc1nc(NC2CCN(Cc3ccc(Cl)cc3)CC2)nc2ccsc12 | IIIB | NNRTI-resistant (RT F227L V106A) | MTT | 0.108 µM |
| Cc1ccnc2c1NC(=O)c1cccnc1N2C1CC1 | IIIB | - | MTT | 0.31 µM |

Again, the opening 5 rows:

compound,strain or isolate,changes,read by,result
COc1cccc(-c2cc(C(C)=O)c(C)n2-c2cccc(N=[N+]=[N-])c2)c1,-,-,cytopathic effect / MTT,>8.7 µM
O=C1Nc2ccccc2/C1=N/n1c(-c2ccncc2)n[nH]c1=S,IIIB,-,cytopathic effect / MTT,>11 µM
Cc1cn([C@H]2C=C[C@@H](COC(=O)CCCCCCCCCCCBr)O2)c(=O)[nH]c1=O,-,-,p24,0.7 µM
CCOC(=O)c1cc(-c2ccccc2)n(-c2cccc(N)c2)c1C,-,-,cytopathic effect / MTT,>300 µM
Cc1cc(C)cc(C(=O)c2cc(Cl)ccc2OCC(=O)Nc2ccc(S(N)(=O)=O)cc2C)c1,IIIB,-,cytopathic effect / propidium iodide,<0.01 µM